Assay results from patent US20160052997A1 (CELLTRION, published 2016).

Target: HA of A/Vietnam/1203/04 (H5N1) virus (Influenza A virus A/Vietnam/1203/04 …)
Test: cell-based or functional assay

B1: CT120 (antibody, V domains shown)
VH: QVQLVQSGAEVKMPGSSVKVSCKTSGVFFSSHAISWVRQAPGQGLEWMGGISPMFGTTHYAQKFQGRVTITADQSTTTAYMELTSLTSEDTAVYYCARDGAGSYYPLNWFDPWGQGTLVTVSS
VL: EIVLTQSPATLSLSPGERATLSCRASENIWNNLAWYQQKPGQAPRLLISGASTGATGVPSRFRGSGSRTEFTLTISSLQSEDFAIYFCQQYNSWPRTFGPGTKVEIKR
Question: Which “EC50, microneutralization test” value does the source give for B1 here?
Answer: 3.46 µg/mL
